Measured values from several laboratories, pooled; numbers as filed in NIAID ChemDB.

Shared fields: whole-cell or culture tests

Fold resistance: result on the changed form divided by that on wild type.

{"structure": "CCC(=O)N=C1[C@H](C)C[C@@]2(C)OC/C(=C/C=C/c3ccccc3)COC([C@H]1C)[C@](C)(O)[C@@H](CC)OC(=O)[C@H](C)C(=O)[C@H](C)[C@H]2O[C@@H]1O[C@H](C)C[C@H](N(C)C)[C@H]1O", "organism": "Streptococcus pneumoniae", "endpoint": "MIC", "strain": "7701 (erythromycin-resistant-MEF)", "result": "1 µg/mL"}
{"structure": "CCCc1cc(=O)oc2cc(OS(=O)(=O)c3ccc(C)cc3)cc(OS(=O)(=O)c3ccc(C)cc3)c12", "organism": "Measles virus", "endpoint": "EC50", "read by": "virus yield", "cell line": "CV-1", "strain": "Chicago-1", "result": "<1 µg/mL"}
{"structure": "CC(=O)OCCOCn1cnc2c(Cl)ncnc21", "organism": "Vesicular stomatitis virus", "endpoint": "EC50", "read by": "cytopathic effect", "cell line": "PRK", "result": ">400 µg/mL"}
{"structure": "CCC(CC)O[C@@H]1C=C(C(=O)O)C[C@H](N)[C@H]1NC(C)=O", "organism": "Influenza B virus", "endpoint": "EC50", "read by": "plaque count", "cell line": "MDCK", "strain": "Isolate G42", "result": "0.125 µg/mL"}
{"structure": "CCOc1ccccc1CCNC(=S)Nc1nccs1", "dose": "1 µg/mL", "organism": "HIV-2", "endpoint": "inhibition", "read by": "cytopathic effect / XTT", "cell line": "MT-4", "result": "100%"}
{"structure": "Cc1cc2[nH]cnc2cc1NC(=O)COc1ccc(Cl)cc1C(=O)c1cc(F)cc(C(F)(F)F)c1", "organism": "HIV-1", "endpoint": "EC50", "read by": "cytopathic effect / propidium iodide", "cell line": "MT-4", "strain": "IIIB", "result": "<0.01 µM"}
{"structure": "CCc1nc(N)nc(N)c1-c1ccc(Cl)cc1", "organism": "Mycobacterium avium complex", "endpoint": "MIC", "strain": "1408", "result": "32 µg/mL"}
{"structure": "CCc1ccc(C(=O)NS(=O)(=O)c2ccccc2O)cc1", "organism": "Toxoplasma gondii", "endpoint": "MIC50", "cell line": "Human foreskin fibroblasts", "result": ">0.25 µM"}
{"structure": "CC[C@H]1OC(=O)[C@H](C)C(=O)[C@H](C)[C@@H](O[C@@H]2O[C@H](C)C[C@H](N(C)C)[C@H]2O)[C@@]2(C)C[C@@H](C)C(=NC(=O)CO)[C@H](C)C(OC/C(=C\\C=C\\c3ccccc3)CO2)[C@]1(C)O", "organism": "Streptococcus pneumoniae", "endpoint": "MIC", "strain": "7701 (erythromycin-resistant-MEF)", "result": "0.5 µg/mL"}
{"structure": "Cc1cc(S(N)(=O)=O)ccc1NC(=O)COc1ccc(Cl)cc1C(=O)c1cc(F)cc(C(F)(F)F)c1", "changes": "RT-Y181C", "organism": "HIV-1", "endpoint": "fold resistance", "read by": "cytopathic effect / propidium iodide", "cell line": "MT-4", "strain": "Nevirapine-resistant (RT Y181C)", "result": "~1"}
{"structure": "CCc1ccc(C(=O)NC(=O)c2ccccc2OC)cc1", "organism": "Toxoplasma gondii", "endpoint": "MIC90", "cell line": "Human foreskin fibroblasts", "result": ">0.25 µM"}
{"structure": "Nc1nc2c(ncn2[C@H]2C[C@@H](O)[C@H](O)[C@@H]2O)c(=O)[nH]1", "organism": "Epstein-Barr virus", "endpoint": "EC50", "read by": "antigen", "cell line": "DAUDI", "result": ">50 µg/mL"}
{"structure": "O=C(NCCc1ccccc1)Nc1nc2ccc(F)cc2s1", "dose": "1 µg/mL", "organism": "HIV-2", "endpoint": "inhibition", "read by": "cytopathic effect / XTT", "cell line": "MT-4", "result": "40%"}
{"structure": "O=c1[nH]c(=O)n([C@H]2C[C@H](O)[C@@H](CO)O2)cc1Br", "dose": "1.268 µg/mL", "organism": "Murine polyoma virus", "endpoint": "inhibition", "read by": "hybridisation", "cell line": "ME", "result": "78.6%"}
{"structure": "O=C1[C@@H](Cc2ccccc2)NC(=S)N1c1ccccc1", "dose": "1 µg/mL", "organism": "HIV-2", "endpoint": "inhibition", "read by": "RT activity", "cell line": "MT-4", "result": "33%"}
{"structure": "CC(=O)Nc1ccc(C(=O)O)cc1", "dose": "10 µM", "organism": "Pneumocystis carinii", "endpoint": "inhibition", "result": "48%"}
{"structure": "CC1CCC(C(=O)N(c2cc(C#CC(C)(C)C)sc2C(=O)O)C2CCC(O)CC2)CC1", "changes": "L419S", "organism": "Hepatitis C virus", "endpoint": "fold resistance", "read by": "luciferase", "cell line": "Huh7", "strain": "H77 (GT1a)", "result": "134.6"}
{"structure": "O=C(N[C@@H](C(=O)N1CCC[C@H]1c1ncc(-c2ccc(-c3ccc(-c4cnc([C@@H]5CCCN5C(=O)[C@H](NC(=O)C5CC5)c5ccccc5)s4)cc3)cc2)s1)c1ccccc1)C1CC1", "changes": "Y93H+V153M+M202L+M265V", "organism": "Hepatitis C virus", "endpoint": "fold resistance", "read by": "luciferase / reporter gene", "cell line": "Huh7.5", "strain": "genotype 1b", "result": "5824"}
{"structure": "Nc1ncnc2c1ncn2C[C@@H](CO)OCP(=O)(O)O", "organism": "Varicella zoster virus", "endpoint": "EC50", "read by": "cytopathic effect", "cell line": "HEL", "strain": "Oka PFA-resistant/A", "result": "0.148 µM"}
{"structure": "O=c1[nH]c(=O)n(COCCO)cc1F", "organism": "Vesicular stomatitis virus", "endpoint": "EC50", "read by": "cytopathic effect", "cell line": "PRK", "result": ">400 µg/mL"}
{"structure": "Nc1nc2c(ncn2COC(CO)CO)c(=O)[nH]1", "dose": "0.3 µM", "organism": "Cytomegalovirus", "endpoint": "inhibition", "cell line": "HEL", "result": "46%"}
{"structure": "CC(=O)OCCOCn1cnc2c(Cl)nc(Cl)nc21", "organism": "Vesicular stomatitis virus", "endpoint": "EC50", "read by": "cytopathic effect", "cell line": "PRK", "result": ">10 µg/mL"}
{"structure": "O=C(O)P(=O)(O)O", "organism": "Varicella zoster virus", "endpoint": "EC50", "read by": "cytopathic effect", "cell line": "HEL", "strain": "Clinical isolate VZV-21", "result": "43.2 µM"}
{"structure": "CCCCN1C(=O)[C@@H](Cc2ccccc2)NC1=S", "dose": "10 µg/mL", "organism": "HIV-2", "endpoint": "inhibition", "read by": "RT activity", "cell line": "MT-4", "result": "1%"}
{"structure": "Cc1cc(N2CCS(=O)CC2)ccc1NC(=O)COc1ccc(Cl)cc1C(=O)c1nccs1", "changes": "RT-Y181C", "organism": "HIV-1", "endpoint": "fold resistance", "read by": "cytopathic effect / propidium iodide", "cell line": "MT-4", "strain": "Nevirapine-resistant (RT Y181C)", "result": "~10"}
{"structure": "CC[C@H]1OC(=O)[C@H](C)C(=O)[C@H](C)[C@@H](O[C@@H]2O[C@H](C)C[C@H](N(C)C)[C@H]2O)[C@@]2(C)C[C@@H](C)C(=NC(C)=O)[C@H](C)C(OC/C(=C\\C#Cc3ccc(N)cc3)CO2)[C@]1(C)O", "organism": "Haemophilus influenzae", "endpoint": "MIC", "strain": "33929 (ampicillin-resistant)", "result": "8 µg/mL"}
{"structure": "Cc1nc(NC(=O)NCCc2ccccc2)sc1C", "dose": "1 µg/mL", "organism": "HIV-2", "endpoint": "inhibition", "read by": "cytopathic effect / XTT", "cell line": "MT-4", "result": "100%"}
{"structure": "C/C=C/C/C=C/CCC(=O)[C@H]1O[C@H]1C(N)=O", "organism": "Escherichia coli", "endpoint": "MIC", "strain": "UB1005/PSJ13", "result": "20 µg/mL"}
{"structure": "CCCc1cc(=O)oc2c3c(c4c(c12)OC(C)(C)C=C4)O[C@H](C)[C@@H](C)[C@@H]3O", "organism": "Measles virus", "endpoint": "EC50", "read by": "cytopathic effect", "cell line": "CV-1", "strain": "Chicago-1", "result": ">100 µg/mL"}
{"structure": "CCC(C)n1ncn(-c2ccc(N3CCN(c4ccc(OC[C@H]5CO[C@](Cn6cncn6)(c6ccc(Cl)cc6Cl)O5)cc4)CC3)cc2)c1=O", "dose": "16 µg/mL", "organism": "Aspergillus fumigatus", "endpoint": "inhibition", "read by": "broth dilution", "strain": "AF293", "result": "99.39%"}
{"structure": "CCCc1cc(=O)oc2c3c(c4c(c12)OC(C)(C)[C@H](O)[C@@H]4O)O[C@H](C)[C@@H](C)[C@@H]3O", "organism": "Measles virus", "endpoint": "EC50", "read by": "cytopathic effect", "cell line": "CV-1", "strain": "MO2", "result": "50 µg/mL"}
{"structure": "CC1(C)O[C@H]2[C@H](O)[C@@H](N=[N+]=[N-])C=C(c3ccc(C=O)cc3)[C@H]2O1", "dose": "31.25 µg/mL", "organism": "Candida tropicalis", "endpoint": "inhibition", "read by": "broth dilution / turbidity", "strain": "C 131", "result": "2.91%"}
{"structure": "Nc1ncnc2c1ncn2C=C1CC1CO", "organism": "Human cytomegalovirus", "endpoint": "EC90", "read by": "plaque count", "strain": "VR6200 (ganciclovir-susceptible)", "result": "4.3 µM"}
{"structure": "CCC(C)CC(C)CCCCCCCCC(=O)N[C@H]1C[C@@H](O)[C@H](NCCN)NC(=O)[C@@H]2[C@@H](O)CCN2C(=O)[C@H]([C@H](O)CCN)NC(=O)[C@H]([C@H](O)[C@@H](O)c2ccc(O)cc2)NC(=O)[C@@H]2C[C@@H](O)CN2C(=O)[C@H]([C@@H](C)O)NC1=O", "organism": "Cryptococcus gattii", "endpoint": "MIC", "read by": "broth dilution", "strain": "CBS 11807", "result": "16 µg/mL"}
{"structure": "CCC(CC)[C@H](NC(C)=O)[C@@H]1[C@H](O)[C@@H](C(=O)O)C[C@H]1N=C(N)N", "organism": "Influenza A virus", "endpoint": "EC50", "cell line": "MDCK", "strain": "Influenza A/Virginia/2/88R (H3N2)", "result": "<0.01 µM"}
{"structure": "O=c1[nH]c(=O)n([C@@H]2O[C@H](CO)[C@@H](O)[C@@H]2O)cc1/C=C/Br", "organism": "Varicella zoster virus", "endpoint": "EC50", "read by": "cytopathic effect", "cell line": "HEL", "strain": "Oka PFA-resistant/A", "result": "0.00037 µM"}
{"structure": "CC[C@H]1OC(=O)[C@H](C)C(=O)[C@H](C)[C@@H](O[C@@H]2O[C@H](C)C[C@H](N(C)C)[C@H]2O)[C@@]2(C)C[C@@H](C)C(=NC(C)=O)[C@H](C)C(OC/C(=C\\C#Cc3ccccc3)CO2)[C@]1(C)O", "organism": "Streptococcus pneumoniae", "endpoint": "MIC", "strain": "700906 (erythromycin-resistant-ERM)", "result": "0.25 µg/mL"}
{"structure": "CCCc1cc(=O)oc2cc(OC(=O)C(C)(C)C)c3c(c12)OC(C)(C)C=C3", "organism": "Measles virus", "endpoint": "EC50", "read by": "cytopathic effect", "cell line": "CV-1", "strain": "Edmonston", "result": "0.3 µg/mL"}
{"structure": "Nc1ccn(C[C@@H](CO)OCP(=O)(O)O)c(=O)n1", "organism": "Simian varicella-zoster virus", "endpoint": "EC50", "read by": "plaque count", "cell line": "VERO", "result": "11 µM"}
{"structure": "CC(C)Nc1nc2cc(Cl)c(Cl)cc2n1[C@H]1O[C@@H](CO)[C@H](O)[C@@H]1O", "organism": "Human cytomegalovirus", "endpoint": "EC50", "read by": "plaque count", "cell line": "MRC-5", "strain": "C8803", "result": "0.21 µM"}
{"structure": "COC(=O)CCCCCCC(=O)Nc1ccc(C(=O)NC(=O)c2ccccc2O)cc1", "organism": "Toxoplasma gondii", "endpoint": "MIC50", "cell line": "Human foreskin fibroblasts", "result": ">1 µM"}
{"structure": "O=C(NCCc1ccccc1)Nc1nc(C(F)(F)F)cs1", "dose": "100 µg/mL", "organism": "HIV-2", "endpoint": "inhibition", "read by": "cytopathic effect / XTT", "cell line": "MT-4", "result": "19%"}
{"structure": "O=C(NC(=O)C1CCCCC1)c1ccccc1O", "organism": "Toxoplasma gondii", "endpoint": "MIC50", "cell line": "Human foreskin fibroblasts", "result": ">0.25 µM"}
{"structure": "O=C1[C@@H](Cc2ccccc2)NC(=S)N1Cc1ccccc1", "dose": "100 µg/mL", "organism": "HIV-2", "endpoint": "inhibition", "read by": "cytopathic effect / XTT", "cell line": "MT-4", "result": "58%"}
{"structure": "Nc1ccn(COCCO)c(=O)n1", "organism": "Vesicular stomatitis virus", "endpoint": "EC50", "read by": "cytopathic effect", "cell line": "PRK", "result": ">400 µg/mL"}
{"structure": "CO[C@H]1/C=C/O[C@@]2(C)Oc3c(C)c(O)c4c(O)c(c(/C=N/N5CCN(C6CCCC6)CC5)c(O)c4c3C2=O)NC(=O)/C(C)=C\\C=C\\[C@H](C)[C@H](O)[C@@H](C)[C@@H](O)[C@@H](C)[C@H](OC(C)=O)[C@@H]1C", "organism": "Mycobacterium avium intracellulare", "endpoint": "MIC", "strain": "998", "result": "≤0.125 µg/mL"}
{"structure": "C=C1COC2[C@@H](C)C(=NC(C)=O)[C@H](C)C[C@@](C)(OC1)[C@H](O[C@@H]1O[C@H](C)C[C@H](N(C)C)[C@H]1O)[C@@H](C)C(=O)[C@@H](C)C(=O)O[C@H](CC)[C@@]2(C)O", "organism": "Streptococcus pneumoniae", "endpoint": "MIC", "strain": "49619 (erythromycin-susceptible)", "result": "0.25 µg/mL"}
{"structure": "N#Cc1cc([N+](=O)[O-])ccc1Oc1ccc(Cl)c(Cl)c1", "dose": "25 µg/mL", "organism": "Coxsackie virus", "endpoint": "inhibition", "cell line": "VERO", "strain": "TYPE A21", "result": "100%"}
{"structure": "N#Cc1csc(NC(=O)NCCc2ccccc2)n1", "dose": "0.1 µg/mL", "organism": "HIV-2", "endpoint": "inhibition", "read by": "RT activity", "cell line": "MT-4", "result": "67%"}
{"structure": "CC(N)C12CC3CC(CC(C3)C1)C2", "organism": "Influenza A virus", "endpoint": "EC50", "read by": "ELISA", "cell line": "MDCK", "strain": "H1N1 A/Singapore/6/86", "result": "0.03 µg/mL"}
{"structure": "Cc1cc(C#N)cc(C(=O)c2cc(Cl)ccc2OCC(=O)Nc2ccc(S(N)(=O)=O)cc2C)c1", "changes": "RT-P236L", "organism": "HIV-1", "endpoint": "fold resistance", "read by": "β-galactosidase", "cell line": "HeLa + HELA CD4+", "strain": "HXB2", "result": "~1"}
{"structure": "OC[C@H]1O[C@@H](n2c(Br)nc3cc(Cl)c(Cl)cc32)[C@H](O)[C@@H]1O", "organism": "Human cytomegalovirus", "endpoint": "EC50", "read by": "hybridisation", "cell line": "MRC-5", "strain": "8702REC2 (ALA594VAL)", "result": "0.75 µM"}
{"structure": "Nc1nc2c(ncn2CCC(CO)CO)c(=O)[nH]1", "organism": "Varicella zoster virus", "endpoint": "EC50", "read by": "cytopathic effect", "cell line": "HEL", "strain": "Oka BVDU-resistant", "result": "23 µM"}
{"structure": "Cc1cc(C#N)cc(C(=O)c2cc(Cl)ccc2OCC(=O)Nc2cnc(S(N)(=O)=O)cc2C)c1", "changes": "RT-P225H", "organism": "HIV-1", "endpoint": "fold resistance", "read by": "β-galactosidase", "cell line": "HeLa + HELA CD4+", "strain": "HXB2", "result": "~1"}

A number after MIC or MFC names an inhibition level or a share of isolates. ECn: concentration that inhibits the pathogen or its effect by n%. Percent inhibition refers to the dose given; in toxicity tests it is the harm to the cells. Conditions beyond the fields shown may differ between rows.